The record followed here is paper PMC4265319.

Construct, isoform or probe ends are uncertain for at least one entry.

For the data set, the target named is T1, LacR (Staphylococcus aureus) (UniProt Q5HE08).
T1 sequence: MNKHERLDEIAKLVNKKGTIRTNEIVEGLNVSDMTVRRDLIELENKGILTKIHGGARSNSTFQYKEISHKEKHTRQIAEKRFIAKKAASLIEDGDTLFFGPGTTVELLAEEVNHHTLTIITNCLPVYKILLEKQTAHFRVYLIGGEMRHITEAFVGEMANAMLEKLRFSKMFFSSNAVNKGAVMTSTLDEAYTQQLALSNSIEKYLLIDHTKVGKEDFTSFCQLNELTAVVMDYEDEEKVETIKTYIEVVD
Put plainly: EMSA. The following applies: 0.01, 0.1, 1 uM LacR, shift at higher concentrations; EMSA 25 C, 20 min, 20 ul, 1x binding buffer, 2.5% glycerol, 50 ng/ml poly(dI-dC), 0.05% NP-40; recombinant protein; residues 1-251; protein details: C-terminal His (pET24d+); label: 5' biotin on both strands; probe letters rebuilt from the primers and the genome. In general terms: In EMSA bound probe runs differently from free probe, usually more slowly.

“GGCTTTCAATTTGATTACGTTTAAATTATAAACATAAACAAACAATAAATCAACATAATATGTTTATAATATGTTTGTTTATGACGTATTTTCAAACAATAAGTGAACATTCATATTGTGGTGTTGTTTTAATTAGGTATTCGTCTGAAATTGTAGTAAAACTTTGTCGAGGTTCCCGTTGACATAAATTTGCATAAAAAATAGCCCATAAATGAATGCAAATTCACATTCACTTATGAGCATATAGATACATATTTTAACAATGCAGTTATACTTTTAATTTAG (double strand) [lac operon promoter]”: the binding result is “binds”.
